Source: the supplement of paper PMC9931576
Changes are numbered by the printed parent chain. Human monoclonal antibodies against the spike receptor-binding domain (heavy:light variable regions). IC50 against pseudoviruses bearing the spike of naturally observed variants; lower = stronger; >10 µg/ml means not reached at the top dose. No active / inactive call. The stated detection limit is 0.0005 µg/ml; values near or below 0.001 µg/ml lie at the floor of the assay.

B1: BD56-634 (protein)
chain 1: QVQFVQSGAEVKKPGASVKLSCKASGYTFTQFAIHWVRQAPGQRLEWMGWINTANDNTKYSPRFLGRVTFTRDISATTVYMDLNSLTSEDTAVYYCARGLGYGELGPNFYFYYYMDVWGKGTTVTVSS
chain 2: QSVVTQSPSASGTPGQRVTISCSGTSSNIGSHYVYWYQQFPGTAPKLLIYSNSQRPSGVPDRFSGSKSGTSASLAISGLRSEDEADYYCAVWDGTLSGNWVFGGGTKLTVL
B2: BD56-636 (protein)
chain 1: QVHLVESGGGVVQPGRSLRLSCAASGFTFSDYAMHWVRQAPGKGLGWVALVSFDGSITYYADSVKGRFTISRDNSKNTLYLQMNRLRAEDTAVYYCASSVSGWDGFDIWGQGTMVTVSS
chain 2: EIVLTQSPDFQSVTPKEKVTITCRASQSIGSSLHWYQQKPDQSPKLLIKYASQSISGVPSRFSGSGSGTDFTLTINSLEAEDAATYYCHQSSSFPFTFGPGTKVDIK
B3: BD56-639 (protein)
chain 1: QVQLVESGGGVVQPGRSLRLSCEASGFTFSSQAMHWVRQAPGKGLEWVAVIWSDGRSTHYADSVQGRFTISRDNSKNTLYLQMNRLRAEDTAVYYCARDASTATLLVSWFDPWGQGTLVTVSS
chain 2: DVQMTQSPSSLSASVGDRVTITCRASQSISTHLNWYQQKPGKAPTLLIYASSSLQSGVPSRFSGSGSGTDFTLTISSLQPEDFATYYCQQSHITPPWTFGQGTKVEIK
B4: BD56-647 (protein)
chain 1: QVQLVQSGAEVKRPGSSVKVSCRASGGTFSSNPISWVRQAPGQGLEWVGGIIPIFDTTNYAQRFQGRVTITADESTGTAYMELSSLRSEDTAFYYCTRGNDYGDPLGYYYAMDVWGPGTTVTVSS
chain 2: QSVLTQPPSVSGAPGQRVTISCTGSSSNIGAGYDVHWYQQFPGTAPKLLIFGNANRPSGVPDRFSGSKSGTSASLAITGLQAEDEADYYCQSYDSSLSDVVFGGGTKLTVL
B5: BD56-648 (protein)
chain 1: QVQLQESGPGLVKPSQTLSLTCTVSSVSISSADYYWSWIRQPPGKGLEWIGNIYYSGSTFYNPSLKSRLTISLDTSKNKFSLKVNSVTVADTAVYYCARGGPRVFYDVLTGDQSYYYYGMDVWGQGTTVTVSS
chain 2: QSALTQPASVSGSPGQSITISCTGTSSDIGGYNSVSWYQQHPGKAPKLMIYDVTKRPSGVSIRFSGSKSGNTASLTISGLQAEDEAAYYCSSYISSSLWVFGGGTKLTVL
B6: BD56-651 (protein)
chain 1: QVQLVESGGGVVQPGRSLRLSCAASGFTFSSYGMHWVRQAPGKGLEWVAVISYDGINQYYADSVKGRFTISRDNSKNTLYLQMNSLRAEDTAVYYCANPPYYDFWRGYYVVGTHETAMDVWGQGTTVTVSS
chain 2: B5 chain 2 with I29V, S34F, T54S, I62N, A87D, I94S, L98T, K106Q

What was measured:
Assay in all cases: pseudovirus neutralization IC50; higher = weaker neutralization
[1] = biological target: SARS-CoV-2 Omicron BA.1 spike pseudovirus
Protocol: (§1)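 Single-round VSV luciferase pseudovirus mixed with antibody dilutions for 1 h and put on Huh-7 cells for about a day; IC50 from the dose curve.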

[2] = biological target: SARS-CoV-2 Omicron BA.2 spike pseudovirus
Protocol: as §1

[3] = biological target: SARS-CoV-2 Omicron BA.2.75 spike pseudovirus
Protocol: as §1

[4] = biological target: SARS-CoV-2 Omicron BA.5 spike pseudovirus
Protocol: as §1

[5] = biological target: SARS-CoV-2 Omicron BQ.1.1 spike pseudovirus
Protocol: as §1

[6] = biological target: SARS-CoV-2 Omicron XBB spike pseudovirus
Protocol: as §1

[7] = biological target: SARS-CoV-2 early D614G spike pseudovirus
Protocol: as §1

Row | Binder | pseudovirus neutralization IC50 [1] [µg/mL] | pseudovirus neutralization IC50 [2] [µg/mL] | pseudovirus neutralization IC50 [3] [µg/mL] | pseudovirus neutralization IC50 [4] [µg/mL] | pseudovirus neutralization IC50 [5] [µg/mL] | pseudovirus neutralization IC50 [6] [µg/mL] | pseudovirus neutralization IC50 [7] [µg/mL]
1 | B1 | 0.0156 | 0.00821 | 0.0121 | > 10 | > 10 | > 10 | 0.0202
2 | B2 | 2.08 | 1.42 | 2.78 | 1.35 | 1.82 | 2.18 | 2.83
3 | B3 | > 10 | > 10 | > 10 | > 10 | > 10 | > 10 | > 10
4 | B4 | 0.521 | 0.712 | 0.786 | 3.06 | > 10 | > 10 | 0.812
5 | B5 | 5.42 | 4.79 | 5.34 | 5.59 | 6.08 | 5.69 | 1.72
6 | B6 | 0.29 | 0.549 | 0.596 | > 10 | > 10 | > 10 | > 10
